Experiments:
glycosylated α9-ECD = glycosylated α9-ECD (Homo sapiens, UniProt Q9UGM1); test: Competition of [125I]α-Bgtx binding by RgIA, glycosylated α9-ECD; details: read-out: Ki value for glycosylated α9-ECD; competition with 50 nM [125I]α-Bgtx; 100 nM protein on Ni2+-NTA beads; PB-BSA pH 7.4; overnight at 4°C; RgIA 1 nM–200 μM; triplicate; mean ± SEM, at least three independent experiments (graph from four experiments)
deglycosylated α9-ECD = deglycosylated α9-ECD (Homo sapiens, UniProt Q9UGM1); test: Competition of [125I]α-Bgtx binding by RgIA, deglycosylated α9-ECD; details: read-out: Ki value for deglycosylated α9-ECD; competition with 50 nM [125I]α-Bgtx; 100 nM protein on Ni2+-NTA beads; PB-BSA pH 7.4; overnight at 4°C; RgIA 1 nM–200 μM; triplicate; mean ± SEM, at least three independent experiments (graph from four experiments)
α9-ECD = α9-ECD (Homo sapiens, UniProt Q9UGM1); test: Binding of RgIA to the α9-ECD (overall, both glycosylation states); details: competition with [125I]α-Bgtx, glycosylated or deglycosylated α9-ECD

Sequences of proteins named here, by UniProt entry; tags and fusion partners are left off. Residues count along the entry.
UniProt Q9UGM1, 23-238 limits assumed: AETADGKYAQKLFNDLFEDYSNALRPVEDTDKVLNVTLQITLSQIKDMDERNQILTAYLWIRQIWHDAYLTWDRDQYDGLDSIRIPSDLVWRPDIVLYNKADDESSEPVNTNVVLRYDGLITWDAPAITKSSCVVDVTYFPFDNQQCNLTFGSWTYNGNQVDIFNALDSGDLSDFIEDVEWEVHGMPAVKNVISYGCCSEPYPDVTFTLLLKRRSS

Row | Structure (SMILES) | Ki (glycosylated α9-ECD) [µM] | Ki (deglycosylated α9-ECD) [µM] | binding affinity (Ki) of RgIA to the α9-ECD, in words (α9-ECD)
1 | NCC(=O)N[C@H]1CSSC[C@@H]2NC(=O)[C@H](CCCN=C(N)N)NC(=O)[C@@H]3CCCN3C(=O)[C@H](CC(=O)O)NC(=O)[C@H](CO)NC(=O)[C@H](CSSC[C@@H](C(=O)N[C@@H](CCCN=C(N)N)C(N)=O)NC(=O)[C@H](CCCN=C(N)N)NC(=O)[C@H](Cc3ccc(O)cc3)NC(=O)[C@H](CCCN=C(N)N)NC2=O)NC1=O | 13.3 | 2.7 | –
2 | N=C(N)NCCC[C@H](NC(=O)[C@@H]1CSSC[C@@H]2NC(=O)[C@@H](NC(=O)CN)CSSC[C@H](NC(=O)[C@H](CCCNC(=N)N)NC(=O)[C@@H]3CCCN3C(=O)[C@H](CC(=O)O)NC(=O)[C@H](CO)NC2=O)C(=O)N[C@@H](CCCNC(=N)N)C(=O)N[C@@H](Cc2ccc(O)cc2)C(=O)N[C@@H](CCCNC(=N)N)C(=O)N1)C(N)=O | – | – | low micromolar range
